{"source": "PubChem BioAssay AID1259414, Drosophila RNAi Screening Center | 2018", "assay": "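Fly genes that alter Wolbachia amount inside host cells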 (primary screen)", "cell system": "Drosophila JW18 cells infected with Wolbachia", "reagent": "long dsRNA against Drosophila genes, 0.25 µg dsRNA per well of a 384-well plate", "timing": "5 days", "treatment": "cells persistently infected with Wolbachia before knock-down; no added drug", "detection": "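Automated imaging of bacterial rRNA staining divided by host cell count, reported as plate-normalised robust z-score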", "reading the numbers": "Wolbachia per cell robust z: higher = more Wolbachia per host cell than the plate typical", "rule for the call": "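Active if absolute robust z reaches 1.5 in two or more of three replicates, leaving out multi- or no-target dsRNAs, genes unexpressed in JW18 and A1 wells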", "note": "The deposit covers about 24,000 reagents; shown is an unselected part of those that have a named target and a result. Over the whole deposit, about 1,210 (5%) are marked active. 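Inactive calls also include excluded dsRNAs with several or no targets, genes unexpressed in JW18, and well A1, regardless of score.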 A plus sign joins genes that one reagent is predicted to hit."}
{"gene knocked down": "Wdr81 (GeneID 34616)", "dsRNA": "DRSC02985", "Wolbachia per cell robust z, rep 1": -5.62, "Wolbachia per cell robust z, rep 2": 1.05, "Wolbachia per cell robust z, rep 3": -6.93, "call": "active"}
{"gene knocked down": "Wdr81 (GeneID 34616)", "dsRNA": "DRSC27272", "Wolbachia per cell robust z, rep 1": -4.09, "Wolbachia per cell robust z, rep 2": 0.538, "Wolbachia per cell robust z, rep 3": -0.907, "call": "inactive"}
{"gene knocked down": "CG14883 (GeneID 41997)", "dsRNA": "DRSC15007", "Wolbachia per cell robust z, rep 1": 0.173, "Wolbachia per cell robust z, rep 2": -0.202, "Wolbachia per cell robust z, rep 3": 0.879, "call": "inactive"}
{"gene knocked down": "dpr1 (GeneID 2768858)", "dsRNA": "DRSC06399", "Wolbachia per cell robust z, rep 1": 0.429, "Wolbachia per cell robust z, rep 2": 0.73, "Wolbachia per cell robust z, rep 3": 0.78, "call": "inactive"}
{"gene knocked down": "BG642167 (GeneID 4379865)", "dsRNA": "DRSC38707", "Wolbachia per cell robust z, rep 1": -0.506, "Wolbachia per cell robust z, rep 2": -1.67, "Wolbachia per cell robust z, rep 3": -0.716, "call": "inactive"}
{"gene knocked down": "CG31371 (GeneID 43626)", "dsRNA": "DRSC15079", "Wolbachia per cell robust z, rep 1": -0.254, "Wolbachia per cell robust z, rep 2": 0.911, "Wolbachia per cell robust z, rep 3": -3.4, "call": "inactive"}
{"gene knocked down": "CG14285 (GeneID 42281)", "dsRNA": "DRSC14766", "Wolbachia per cell robust z, rep 1": -5.27, "Wolbachia per cell robust z, rep 2": 0.406, "Wolbachia per cell robust z, rep 3": -0.537, "call": "inactive"}
{"gene knocked down": "CG31681 (GeneID 318882)", "dsRNA": "DRSC00107", "Wolbachia per cell robust z, rep 1": 0.218, "Wolbachia per cell robust z, rep 2": 0.475, "Wolbachia per cell robust z, rep 3": 0.352, "call": "inactive"}
{"gene knocked down": "CG31681 (GeneID 318882)", "dsRNA": "DRSC25893", "Wolbachia per cell robust z, rep 1": -0.488, "Wolbachia per cell robust z, rep 2": -0.328, "Wolbachia per cell robust z, rep 3": -0.568, "call": "inactive"}
{"gene knocked down": "CG3726 (GeneID 31525)", "dsRNA": "DRSC23143", "Wolbachia per cell robust z, rep 1": 0.407, "Wolbachia per cell robust z, rep 2": -1.91, "Wolbachia per cell robust z, rep 3": -1.3, "call": "inactive"}
{"gene knocked down": "CG3726 (GeneID 31525)", "dsRNA": "DRSC27453", "Wolbachia per cell robust z, rep 1": 1.68, "Wolbachia per cell robust z, rep 2": 0.536, "Wolbachia per cell robust z, rep 3": 0.739, "call": "inactive"}
{"gene knocked down": "CG9926 (GeneID 41700)", "dsRNA": "DRSC16582", "Wolbachia per cell robust z, rep 1": 0.625, "Wolbachia per cell robust z, rep 2": 0.26, "Wolbachia per cell robust z, rep 3": -0.139, "call": "inactive"}
{"gene knocked down": "CG9926 (GeneID 41700)", "dsRNA": "DRSC29175", "Wolbachia per cell robust z, rep 1": 0.993, "Wolbachia per cell robust z, rep 2": -0.243, "Wolbachia per cell robust z, rep 3": 0.231, "call": "inactive"}
{"gene knocked down": "Spx (GeneID 31558)", "dsRNA": "DRSC18720", "Wolbachia per cell robust z, rep 1": -3.86, "Wolbachia per cell robust z, rep 2": 0.299, "Wolbachia per cell robust z, rep 3": -0.0716, "call": "inactive"}
{"gene knocked down": "Spx (GeneID 31558)", "dsRNA": "DRSC23542", "Wolbachia per cell robust z, rep 1": 2.1, "Wolbachia per cell robust z, rep 2": 6.97, "Wolbachia per cell robust z, rep 3": 5.77, "call": "active"}
{"gene knocked down": "CG34253 + lncRNA:CR32194", "dsRNA": "DRSC09531", "Wolbachia per cell robust z, rep 1": 0.307, "Wolbachia per cell robust z, rep 2": 0.72, "Wolbachia per cell robust z, rep 3": -3.7, "call": "inactive"}
{"gene knocked down": "grnd (GeneID 35103)", "dsRNA": "DRSC02020", "Wolbachia per cell robust z, rep 1": -0.315, "Wolbachia per cell robust z, rep 2": 0.755, "Wolbachia per cell robust z, rep 3": 1.75, "call": "inactive"}
{"gene knocked down": "Hr96 (GeneID 42993)", "dsRNA": "DRSC16707", "Wolbachia per cell robust z, rep 1": -8.15, "Wolbachia per cell robust z, rep 2": -0.709, "Wolbachia per cell robust z, rep 3": -0.411, "call": "inactive"}
{"gene knocked down": "CG32444 (GeneID 40406)", "dsRNA": "DRSC11677", "Wolbachia per cell robust z, rep 1": -1.52, "Wolbachia per cell robust z, rep 2": 0.384, "Wolbachia per cell robust z, rep 3": 0.62, "call": "inactive"}
{"gene knocked down": "CG14949 (GeneID 38328)", "dsRNA": "DRSC08408", "Wolbachia per cell robust z, rep 1": 1.03, "Wolbachia per cell robust z, rep 2": -0.183, "Wolbachia per cell robust z, rep 3": 0.233, "call": "inactive"}
{"gene knocked down": "l(2)k09022 (GeneID 33960)", "dsRNA": "DRSC02108", "Wolbachia per cell robust z, rep 1": -1.08, "Wolbachia per cell robust z, rep 2": 0.772, "Wolbachia per cell robust z, rep 3": 0.0978, "call": "inactive"}
{"gene knocked down": "CG9123 (GeneID 32462)", "dsRNA": "DRSC20156", "Wolbachia per cell robust z, rep 1": 0.14, "Wolbachia per cell robust z, rep 2": 0.831, "Wolbachia per cell robust z, rep 3": -0.712, "call": "inactive"}
{"gene knocked down": "CG1636 (GeneID 31766)", "dsRNA": "DRSC18111", "Wolbachia per cell robust z, rep 1": 0.0725, "Wolbachia per cell robust z, rep 2": 1.02, "Wolbachia per cell robust z, rep 3": 1.06, "call": "inactive"}
{"gene knocked down": "ND-13A (GeneID 33744)", "dsRNA": "DRSC03110", "Wolbachia per cell robust z, rep 1": -0.928, "Wolbachia per cell robust z, rep 2": -0.773, "Wolbachia per cell robust z, rep 3": -0.195, "call": "inactive"}
{"gene knocked down": "ND-13A (GeneID 33744)", "dsRNA": "DRSC29397", "Wolbachia per cell robust z, rep 1": -0.0262, "Wolbachia per cell robust z, rep 2": -0.249, "Wolbachia per cell robust z, rep 3": -0.68, "call": "inactive"}

Targets listed so far whose target name starts with S or s:
{"gene knocked down": "Spx (GeneID 31558)", "dsRNA": "DRSC18720", "Wolbachia per cell robust z, rep 1": -3.86, "Wolbachia per cell robust z, rep 2": 0.299, "Wolbachia per cell robust z, rep 3": -0.0716, "call": "inactive"}
{"gene knocked down": "Spx (GeneID 31558)", "dsRNA": "DRSC23542", "Wolbachia per cell robust z, rep 1": 2.1, "Wolbachia per cell robust z, rep 2": 6.97, "Wolbachia per cell robust z, rep 3": 5.77, "call": "active"}
